Key:
Staphylococcus aureus [1] = assay: Antibacterial activity against Staphylococcus aureus ATCC 19636 infected ICR mouse septicemia model assessed as increase in animal's survival rate administered iv at 1 hr post-infection and measured after 48 hrs
Staphylococcus aureus [2] = assay: Antibacterial activity against Staphylococcus aureus ATCC 19636 infected Sprague-Dawley rat peritonitis model assessed as increase in animal's survival rate administered iv at 1 hr post-infection and measured after 48 hrs
Staphylococcus aureus [3] = assay: Antibacterial activity against Staphylococcus aureus ATCC 19636 infected Sprague-Dawley rat peritonitis model assessed as increase in animal's survival rate administered orally at 1 hr post-infection and measured after 48 hrs; conditions: route po
Staphylococcus aureus [4] = assay: Antibacterial activity against Staphylococcus aureus ATCC 29213 infected ICR mouse thigh infection model assessed as log reduction in bacterial colony forming units administered at 40 mg/kg, po at 2 hrs post-infection and measured at 24 hrs post-infection; conditions: time 22 hrs

Compound | ED50 (Staphylococcus aureus [1]) | ED50 (Staphylococcus aureus [2]) | ED50 (Staphylococcus aureus [3]) | Activity (Staphylococcus aureus [4])
O=C1C=CN(c2c(F)cc(N3C[C@H](CN(c4ccon4)P(=O)([O-])[O-])OC3=O)c(F)c2F)CC1.[Na+].[Na+] | 10 mg/kg | – | – | –
COP(=O)(O)N(C[C@H]1CN(c2cc(F)c(N3C=CC(=O)CC3)c(F)c2F)C(=O)O1)c1ccon1 | > 20 mg/kg | – | – | –
CC(=O)OP(=O)([O-])N(C[C@H]1CN(c2cc(F)c(N3C=CC(=O)CC3)c(F)c2F)C(=O)O1)c1ccon1.[Na+] | – | 10.3 mg/kg | 10.3 mg/kg | >2 log10CFU
CCOP(=O)(O)N(C[C@H]1CN(c2cc(F)c(N3C=CC(=O)CC3)c(F)c2F)C(=O)O1)c1ccon1 | > 30 mg/kg | – | – | –

— ChEMBL document CHEMBL5120941 (ACS Med Chem Lett, 2022)
